# Reference: patent publication US20110306541A1, “METHODS FOR TREATING HCV” (priority 2010, published 2011)
# Tested on: HCV genotype 1b replicon cells (Huh-luc)
# Test: EC50 determinations in Huh-luc replicon cells (Biological Example 2)
# Type: cell-based
# Conditions: 3 days, Units per milliliter
# Method: Compounds were serially diluted 1:3 in 100% DMSO (Sigma). These serial dilutions were added to the cells at a 1:200 dilution to achieve a final concentration of 0.5% DMSO in a total volume of 200 μL. Plates were incubated at 37° C. for 3 days, after which culture media were removed and cells were lysed and assayed for luciferase activity using a commercial luciferase assay (Promega, Madison, Wis.). HCV replication levels in drug-treated samples were expressed as a percentage of those in untreated controls (defined as 100%), and data were fit to the logistic dose response equation y=a/(1+(x/b)^c) using XLFit4 software (IDBS, Emeryville, Calif.). EC50 values were calculated from the resulting equations as described previously.
substance,measurement,value
IFN-α,EC50,0.105 ± .003 (U/mL)^b
